Human monoclonal antibodies against the spike receptor-binding domain (heavy:light variable regions). IC50 against pseudoviruses bearing the spike of naturally observed variants; lower = stronger; >10 µg/ml means not reached at the top dose. No active / inactive call. The stated detection limit is 0.0005 µg/ml; values near or below 0.001 µg/ml lie at the floor of the assay.
Columns and labels:
Test in all cases: pseudovirus neutralization IC50; higher = weaker neutralization
[1] = biological target: SARS-CoV-2 Omicron BA.1 spike pseudovirus
Description: (§1)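 Single-round VSV luciferase pseudovirus mixed with antibody dilutions for 1 h and put on Huh-7 cells for about a day; IC50 from the dose curve.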

[2] = biological target: SARS-CoV-2 Omicron BA.2 spike pseudovirus
Description: as §1

[3] = biological target: SARS-CoV-2 Omicron BA.2.75 spike pseudovirus
Description: as §1

[4] = biological target: SARS-CoV-2 Omicron BA.5 spike pseudovirus
Description: as §1

[5] = biological target: SARS-CoV-2 Omicron BQ.1.1 spike pseudovirus
Description: as §1

[6] = biological target: SARS-CoV-2 Omicron XBB spike pseudovirus
Description: as §1

[7] = biological target: SARS-CoV-2 early D614G spike pseudovirus
Description: as §1

| Binder | pseudovirus neutralization IC50 [1] | pseudovirus neutralization IC50 [2] | pseudovirus neutralization IC50 [3] | pseudovirus neutralization IC50 [4] | pseudovirus neutralization IC50 [5] | pseudovirus neutralization IC50 [6] | pseudovirus neutralization IC50 [7] |
| --- | --- | --- | --- | --- | --- | --- | --- |
| BD57-0124 (protein) chain 1: EVQLVESGGGLVKPGGSLRLSCAASGFSFSDAWMTWVRLAPGKGLEWVGHIKSKTDGGTTHHAAPVKGRFTISRDDSKNTLYLQMSSLKTEDTAVYYCIWSDTLTLYIDYGMDVWGQGTTVTVSS chain 2: DIQMTQSPSTLSASVGDRVTITCRASQSISTWLAWYQQKPGKAPELLIYKASTLESGVPSRFSGSGSGTEFTLTISSLQPDDSATYYCQQYNNYYWTFGQGTKVEIK | 1.63 µg/mL | 1.87 µg/mL | 3.3 µg/mL | 2.37 µg/mL | 5.03 µg/mL | 4.8 µg/mL | > 10 µg/mL |
| BD57-0157 (protein) chain 1: QVQLVQSGAEVKKPGSSVKVSCRASGDTFNNFPVSWVRQAPGQGLEWMGGIIPIFGTANYAHKFQGRVTITADESTSTVYMELSSLRSEDTAIYYCARDVWYCSSTSCDSGGYYYSYMDVWGKGTTVTVSS chain 2: EIVLTQSPGTLSLSPGERATLSCRASQSLGNIYLAWYQQKPGQAPRLLIFGASSRATGIPDRFSGSGSGTDFTLTISSLEPEDFAVYYCQQYGSSPITFGQGTRLEIK | 0.699 µg/mL | 1.28 µg/mL | 0.943 µg/mL | 1.39 µg/mL | > 10 µg/mL | > 10 µg/mL | > 10 µg/mL |
| BD57-0125 (protein) chain 1: EVQLAESGGGLVQPGGSLRLSCVASGFSFSTYDMHWVRQTPGKGLEWVSAIGTAGDTYYPDSVKGRFTISRENARNSLYLEMNSLRAGDTAVYFCTRALHSVVRGGLQTYYYYYMDVWGKGTTVAVSS chain 2: DIQMTQSPSSLSASVGDTVTITCRASQTINSYLNWYQQKPGKAPKLLIFAASTLQTGVPSRFSGSGSGTEFTLTISSLQPEDFATYYCQQSYIMPGWTFGPGTTVEIK | > 10 µg/mL | > 10 µg/mL | > 10 µg/mL | > 10 µg/mL | > 10 µg/mL | > 10 µg/mL | > 10 µg/mL |
| BD57-0155 (protein) chain 1: QVQLVESGGGVVQPGRSLRLSCAASGFTFRNYGMHWVRQPPGKGLEWVALISYDGSDKYYADSVKGRFTISRDSSKNTLFLQMNSLRAEDTAVYYCVKGPWYSSSWEYYFEYWGQGTLVTVSS chain 2: DIQMIQSPSSLSASLGDRVTITCRASQSINSHLNWYQQKPGKAPNLLIYDASNLQSGVPSRVSGSGSGTDFALTISSLQPEDFATYYCQQSYSIPLTFGGGTKVEIK | 5.16 µg/mL | 5.57 µg/mL | 3.28 µg/mL | > 10 µg/mL | > 10 µg/mL | > 10 µg/mL | > 10 µg/mL |
| BD57-0117 (protein) chain 1: QIQLVQSGAEVKKPGSSVKLSCTAFGGTLNSYAINWVRQAPGQGLEWMGRIIPIFSVVNYAEKFQDRVTITADTSTATGSMGTATFYMELTTLTSEDTAVYFCARDRPPFGAGRIWGQGTLVSVST chain 2: DIQMTQSPSSLSASVGDRVTITCQASQDIGKFLNWYQQKPGKSPQLLISEASTLETGVPSRFSGGGSGTDFHFTISSLQPEDIATYYCQQYDHFLTFGPGTKVNVK | 0.797 µg/mL | 0.000523 µg/mL | 0.000485 µg/mL | 0.000888 µg/mL | > 10 µg/mL | > 10 µg/mL | 0.278 µg/mL |
| BD57-0143 (protein) chain 1: QVQLVQSGTEVKKPGSSVKVSCKASGGTFSISAFNWVRQAPGQGLEWMGRIIPVPDITNYAQKFQGRVTITADKSTSTAYMELRSLRSEDTAVYYCASPFKRGYSGYDFFDYGLDVWGRGTTVIVSS chain 2: DIQMTQSPSSLSASVGDRVTITCQASQDINNNLNWYQHKPGKAPSLLIYDASTLQTGVPSRFSGGGSGTHFTFTVSSLQPEDIATYYCQQSDELPLTFGGGTKVEIK | > 10 µg/mL | > 10 µg/mL | > 10 µg/mL | > 10 µg/mL | > 10 µg/mL | > 10 µg/mL | 0.0191 µg/mL |
| BD57-0131 (protein) chain 1: QVQLVESGGGVVQPGTSLRLSCAASGFTFNRYGLHWVRQAPGKGLEWVAVMSFDGSHIYYAHSVKGRFTISRDNSRNTLYLQMRSLRAEDTAVYYCVRDSGDGITGTTGWLAPWGQGALVTVSA chain 2: SYVLTQPPSVSVAPGQTAKITCEADSIGSKSVHWYQQKSGQAPVLVVYDDSDRPSGIPERFSGSNSGNTATLTISRVEAGDEADYYCQVWDGSGDPFVFGSGTKVTVL | 2.43 µg/mL | 2.38 µg/mL | 3.91 µg/mL | 1.89 µg/mL | > 10 µg/mL | > 10 µg/mL | > 10 µg/mL |
| BD57-0135 (protein) chain 1: QVLLVESGGGVVQPGRSLRLSCAASGFPFSTFGLHWVRQSPGKGLEWVSLISYDGANKVYADSVKGRFTISRDNSKNTLYLQMKSLRPEDTAVYYCARDPGDGITGTTGWLGPWGQGTLVTVS chain 2: SYVLTQPPSVSVAPGQTARITCGGDSIGSKSVHWYQQKPGQAPVLVVYDDSDRPSGIPERFSGSNSGNTATLTISRVEVGDEADYYCQVWDSSTDPYVFGIGTKVTVL | 2.55 µg/mL | 1.97 µg/mL | 2.58 µg/mL | 2.46 µg/mL | > 10 µg/mL | > 10 µg/mL | > 10 µg/mL |
| BD57-0150 (protein) chain 1: QVQLQESGPGLVKPSETLSLTCTVSGGSISSSSYYWGWIRQPPGKGLEWIGSIYHSGTTYYNPSLKSRVSISVDTSKNHFSLKLNSVTAADTAMYYCARELLLIDVWGQGTTVTVSS chain 2: DIQMTQSPSSLSASVGDRVTITCQASQDINNYLSWYQQKPGKAPKLLIYDASNLQTGVSSRFSGSGSGTDFTFTISSLQAEDIATYYCQHYDNLPPGGIFGPGTKVDIK | 0.901 µg/mL | 0.409 µg/mL | 0.644 µg/mL | 3.87 µg/mL | > 10 µg/mL | > 10 µg/mL | 0.199 µg/mL |
| BD57-0142 (protein) chain 1: QVQLQESGPGLVKPSETLSLTCTVSGGSISSSIYYWAWIRQPPGKGLEWIGSINYSGNTYHSPSLKSRVTISEDTSQNQFSLKLISVTAADTAIYYCARHELGRYYGSGTYHTDDCFDYWGPGTLVIVSS chain 2: QSVVTQPPSASGTPGQRVTISCSGSNFNIGSNPVTWYQQFPGTAPKLLIYTNNQRGPGVPDRFSGSKSGTSASLAISGLQSEDEADYYCATWDDSLNGPVFGGGTKLTVL | 1.6 µg/mL | 1.94 µg/mL | 2.7 µg/mL | 3.07 µg/mL | > 10 µg/mL | 3.57 µg/mL | 1.14 µg/mL |
| COVOX-150 (protein) chain 1: QVQLVESGGGLIQPGGSLRLSCAASGVTVSSNYMSWVRQAPGKGLEWVSIIYSGGTTYYADSVKGRFTISRDSSMNTLYLQMNSLRAEDTAVYYCARDLMVYGIDVWGQGTTVTVSS chain 2: IVMTQSPSSLSASVGDRVTITCRASQGISSYLAWYQQKPGKAPKLLIYAASTLQSGVPSRFSGSGSGTDFTLTISSLQPEDFATYYCQQLDSYPPGYTFGQGTKVDIK | > 10 µg/mL | > 10 µg/mL | > 10 µg/mL | > 10 µg/mL | > 10 µg/mL | > 10 µg/mL | 0.084 µg/mL |
| BD57-0132 (protein) chain 1: EVQLVESGGGLVKPGGSLRLSCVASGFTFSSYSMNWVRQAPGKGLEWVSSISRSDTTTYYADSVRGRFTISRDSAKNSLYLQMNSLRAEDTAVYYCARGDLWGFDLVMEVAGHFDYWGQGTLVTVSS chain 2: EIVLTQSPGTLSLSPGERATLSCRASQSVSSSSLAWYQQKPGQAPRLLIYGAFSRATGIPDRFSGSGSGTDFTLTISRLEPEDFAVYYCQQFGSSPLYTFGQGTKLEIK | > 10 µg/mL | > 10 µg/mL | > 10 µg/mL | > 10 µg/mL | > 10 µg/mL | > 10 µg/mL | > 10 µg/mL |
